Assay results reported in US20190142864A1, “METHODS AND SYSTEMS, FOR INTERFERING WITH VIABILITY OF BACTERIA AND RELATED ANTIMICROBIALS AND COMPOSITIONS” (CALIFORNIA INSTITUTE OF TECHNOLOGY, priority 2017, published 2019).

System: P. aeruginosa aggregate biofilms
Assay: Oxygen profiling of treated ABBA samples
Type: cell-based, Pseudomonas aeruginosa
Conditions: after 6 hr treatment

NC[C@H]1O[C@H](O[C@H]2[C@H](O)[C@@H](O[C@H]3O[C@H](CO)[C@@H](O)[C@H](N)[C@H]3O)[C@H](N)C[C@@H]2N)[C@H](N)C[C@@H]1O [tobramycin, reference compound]
oxygen concentrations at even the greatest depths (40 μg/ml tobramycin): around 50 % of atmospheric values | oxygen profile of treated aggregate biofilms (40 μg/ml tobramycin, 10 mM chlorate): never become anoxic | oxygen consumption rates for equivalent SYTO-9-stained cells (depths of 150 to 200 μm): 0.27 μM/μm
